Measured values as given in US20180003711A1, “DIRECTED EVOLUTION OF MEMBRANE PROTEINS IN EUKARYOTIC CELLS WITH A CELL WALL” (Universität Zürich, priority 2014, published 2018).

System: S. cerevisiae strain BY4741
Experiment: Radioligand binding assay (RLBA) on whole yeast cells: average total functional receptors per cell
Assay type: cell-based, Saccharomyces cerevisiae
Conditions: non-adapted yeast

## KOR1: wild-type human kappa-type opioid receptor [reference compound]
  functional expression level in yeast (in words): low expression levels

B1: NTR1: wild-type rat neurotensin receptor 1, N-terminally truncated from amino acids 1-42 (protein, UniProt P20789 43-424, looked up, fragment)
chain: TSESDTAGPNSDLDVNTDIYSKVLVTAIYLALFVVGTVGNSVTAFTLARKKSLQSLQSTVHYHLGSLALSDLLILLLAMPVELYNFIWVHHPWAFGDAGCRGYYFLRDACTYATALNVASLSVERYLAICHPFKAKTLMSRSRTKKFISAIWLASALLAIPMLFTMGLQNRSGDGTHPGGLVCTPIVDTATVKVVIQVNTFMSFLFPMLVISILNTVIANKLTVMVHQAAEQGRVCTVGTHNGLEHSTFNMTIEPGRVQALRHGVLVLRAVVIAFVVCWLPYHVRRLMFCYISDEQWTTFLFDFYHYFYMLTNALFYVSSAINPILYNLVSANFRQVFLSTLACLCPGWRHRRKKRPTFSRKPNSMSSNHAFSTSATRETLY
  functional expression level in yeast (in words): low expression levels

B2: NK1R: wild-type human NK-1 receptor (tachykinin receptor 1, substance-P receptor) (protein, UniProt P25103 1-407, looked up)
Substance-P receptor: MDNVLPVDSDLSPNISTNTSEPNQFVQPAWQIVLWAAAYTVIVVTSVVGNVVVMWIILAHKRMRTVTNYFLVNLAFAEASMAAFNTVVNFTYAVHNEWYYGLFYCKFHNFFPIAAVFASIYSMTAVAFDRYMAIIHPLQPRLSATATKVVICVIWVLALLLAFPQGYYSTTETMPSRVVCMIEWPEHPNKIYEKVYHICVTVLIYFLPLLVIGYAYTVVGITLWASEIPGDSSDRYHEQVSAKRKVVKMMIVVVCTFAICWLPFHIFFLLPYINPDLYLKKFIQQVYLAIMWLAMSSTMYNPIIYCCLNDRFRLGFKHAFRCCPFISAGDYEGLEMKSTRYLQTQGSVYKVSRLETTISTVVGAHEEEPEDGPKATPSSLDLTSNCSSRSDSKTMTESFSFSSNVLS
  functional expression level in yeast (in words): no functional expression at all is detected
